# Tested on: C. difficile spores
# Experiment: Activation of C. difficile spore germination by amino acid analogs with taurocholate
# Assay type: cell-based, Clostridium difficile strain 630
# Conditions: not given
row,SMILES,activity as co-germinant / agonist of spore germination
1,"NCC(=O)NO [Compound A08, glycine hydroxamate, reference compound]",unable to activate or inhibit

# Same assay, conditions: 12 mM amino acid analog with 6 mM taurocholate
row,SMILES,activity as co-germinant / agonist of spore germination
1,"NCCC(=O)O [Compound A02, β-Alanine]",as effective as glycine
2,"CCOC(=O)CN [Compound A06, glycine ethyl ester, reference compound]",unable to activate or inhibit
3,"NCC(N)=O [Compound A07, glycinamide, reference compound]",unable to activate or inhibit
4,"NCC(=O)OC(=O)CN [Compound A10, glycine anhydride, reference compound]",unable to activate or inhibit
5,"CNCC(=O)O [Compound A11, sarcosine, reference compound]",neither activate nor inhibit
6,"CN(C)CC(=O)O [Compound A12, N,N-dimethylglycine, reference compound]",neither activate nor inhibit
7,"C[N+](C)(C)CC(=O)O [Compound A13, betaine, reference compound]",neither activate nor inhibit
8,"C[C@H](N)C(=O)O [Compound A16, L-alanine]",as efficient at triggering germination as glycine
9,"C[C@@H](N)C(=O)O [Compound A17, D-alanine, reference compound]",inactive as an agonist
10,"CC[C@H](N)C(=O)O [Compound A18, L-2-aminobutyric acid]",able to activate germination to levels similar to glycine
11,"CCC[C@H](N)C(=O)O [Compound A19, L-norvaline]",able to activate germination to levels similar to glycine
12,"CC[C@H](C)[C@H](N)C(=O)O [Compound A21, L-isoleucine]",poor germinants
13,"CC(C)C[C@H](N)C(=O)O [Compound A22, L-leucine]",poor germinants
14,"N[C@@H](CS)C(=O)O [Compound A23, L-cysteine]",good germinant
15,"N[C@@H](CO)C(=O)O [Compound A24, L-serine]",almost inactive
16,"CSCC[C@H](N)C(=O)O [Compound A25, L-methionine]",poor germinant
17,"N[C@@H](Cc1ccccc1)C(=O)O [Compound A26, L-phenylalanine]",as effective as glycine
18,"NCCCC[C@H](N)C(=O)O [Compound A28, L-lysine]",weak germinant
19,"N[C@@H](Cc1c[nH]cn1)C(=O)O [Compound A29, L-histidine]",could not efficiently activate
